{"source": "patent US12655101B2", "about": "“Small molecules with antibacterial activity” (NEW MEXICO TECH UNIVERSITY RESEARCH PARK CORPORATION, priority 2021, dated 2026)", "test_system": "A. baumannii ATCC BAA-1797", "assay": "Colony counts of A. baumannii ATCC BAA-1797 treated with 4xMIC for 16 hours", "format": "cell-based", "details": "1 μg/mL PME, 1 mM PAO, compounds at 4xMIC", "data": [{"smiles": "O=[As]c1ccccc1", "note": "(stereo not shown)", "values": [{"measurement": "cell viability after 16 hours of treatment", "result": "cells were still viable"}]}]}
